Results of unrelated studies side by side (data: NIAID ChemDB).

Common to all: tests on isolated targets; species: HIV-1; protein: Integrase; read-out: IC50

Conditions beyond the fields shown may differ between rows. ICn: concentration for n% inhibition. An empty or dashed field is not shown. Two numbers with a dash give a range or band.

COC1=C(c2c(OC)cc3cc4cc(C)oc(=O)c4c(O)c3c2O)C(=O)c2c(O)cc(C)cc2C1=O ; read by: absorbance ; value: 6 µM
O=C(NCc1ccccc1)c1cc2cc(O)c(O)cc2[nH]1 ; read by: 3′ processing ; value: 25 µM
CN(CC1c2nc(C(=O)NCc3ccc(F)cc3)c(O)c(=O)n2CCN1C)C(=O)c1ccccn1 ; read by: ELISA ; value: <10 µM
O=C(/C=C/c1ccc(O)c(O)c1)OCCc1ccc(N=C=S)cc1 ; mutations: C56S ; read by: 3′ processing ; value: 18 µM
O=C(NCc1ccc(F)cc1)c1nc2n(c(=O)c1O)CCOCC2 ; read by: ELISA ; value: <10 µM
O=C(/C=C/c1cccnc1)/C=C/c1cccnc1 ; value: 5 µM
Cn1cc(C(=O)O)c(=O)c2cc(N)c(N3CCN(c4ccccn4)CC3)cc21 ; value: 60 µM
O=C(NCc1ccccc1)c1cc2cc3c(cc2[nH]1)OCO3 ; read by: 3′ processing ; value: >100 µM
COc1cccc2c1c(/C(O)=C/C(=O)C(=O)O)cn2Cc1ccccc1F.COc1cccc2c1c(/C(O)=C/C(=O)C(=O)O)cn2Cc1ccccc1F.[Mg+2].[Mg+2] ; strain: IIIB ; read by: strand transfer / AlphaScreen ; value: 0.02 µM
Cc1cccnc1/C=C/C(=O)/C=C/c1ncccc1C ; value: 4 µM
O=C(/C=C/c1ccc(O)c(O)c1)OCCc1ccc(NC(=S)SCCO)cc1 ; read by: 3′ processing ; value: 3 µM
CC(C)(C)NS(=O)(=O)c1ccccc1-c1cccc(C(=O)Nc2ccc(CCC(=O)O)cc2)c1 ; mutations: A128T ; read by: strand transfer / fluorescence ; value: 4.529 µM
N#C/C(=C\c1ccc(O)c(O)c1)C(=O)Nc1cccc(C(=O)O)c1 ; read by: 3′ processing / substrate cleavage ; value: 10–100 µM
O=C(/C=C/c1ccc(O)c(O)c1)OCCc1cccc(N=C=S)c1 ; mutations: C56S ; read by: 3′ processing ; value: 23 µM
O=C1c2c(O)c(=O)n(C3CCS(=O)(=O)CC3)c(=O)n2CCN1Cc1ccc(F)cc1 ; read by: strand transfer ; value: <10 µM
N#Cc1cc2cc(Sc3ccccc3)c([N+](=O)[O-])cc2n(O)c1=N ; read by: 3′ processing / gel ; value: >100 µM
O=c1cc(Sc2ccc(Cl)cc2)[nH]c(=O)n1O ; read by: strand transfer / absorbance ; value: 0.64 µM
N#C/C(=C\c1ccc(O)c(O)c1)C(=O)NCC1CCCC(CNC(=O)/C(C#N)=C/c2ccc(O)c(O)c2)C1 ; read by: 3′ processing / substrate cleavage ; value: 10–100 µM
O=C(NCc1ccc(F)cc1)C1C(=O)N(O)C(=O)c2ccccc21 ; read by: ELISA / strand transfer ; value: 0.099 µM
Cc1cccnc1CN(C)Cc1nc2nccc(N3CCN(C)CC3)c2[nH]1 ; read by: AlphaScreen ; value: 0.56 µM
CC(C)n1c(=O)c(O)c2n(c1=O)CCN(Cc1ccc(F)c(Cl)c1)C2=O ; read by: strand transfer ; value: <10 µM
CN1CCn2c(nc(C(=O)NCc3ccc(F)c(Cl)c3)c(O)c2=O)C1(C)C ; read by: ELISA ; value: <10 µM
CC1(C)CCC[C@]2(C)[C@H]3C[C@](C)(C=O)[C@@H](C[C@H](O)c4ccoc4)[C@]3(C)CC[C@@H]12 ; read by: binding ; value: 9.6 µM
O=C(NCCc1ccc(O)c(O)c1)c1cc2cc(O)c(O)cc2[nH]1 ; read by: 3′ processing ; value: 16 µM
CNC(=O)NC[C@H]1O[C@@H](n2cnc3c(NC(=O)Nc4ccccc4)ncnc32)[C@H](O[Si](C)(C)C(C)(C)C)[C@@H]1CC(=O)N(C)OC ; strain: NL4-3 ; read by: 3′ processing ; value: >10 µM
N#C/C(=C\c1ccc(O)c(O)c1)C(=O)c1ccc(O)c(O)c1 ; read by: 3′ processing / substrate cleavage ; value: 1 µM
O=C(/C=C/c1ccc2ccccc2n1)/C=C/c1ccc2ccccc2n1 ; value: 1.2 µM
N#Cc1cc2cc([N+](=O)[O-])c([N+](=O)[O-])cc2n(O)c1=N ; read by: 3′ processing / gel ; value: 4 µM
C=C(C=O)[C@@H]1C[C@@]2(C)C(=CC1=O)[C@H](OC(=O)/C(C)=C\C(C)CCCC)CC[C@@H]2C(=O)O ; read by: disintegration ; value: 15 µM
O=C(/C=C/c1ccc(O)c(O)c1)Oc1ccc2c(N=C=S)cccc2c1 ; mutations: C65S ; read by: 3′ processing ; value: 7 µM
NC(Cc1ccc(Cl)c(Cl)c1)(P(=O)(O)O)P(=O)(O)O ; read by: 3′ processing / gel ; value: 6 µM
COc1cccc(/C=C/C(=O)/C=C/c2cccc(OC)n2)n1 ; value: >20 µM
CN1Cn2c(nc(C(=O)NCc3ccc(F)cc3S(C)(=O)=O)c(O)c2=O)C1(C)C ; read by: ELISA ; value: <10 µM
COc1cccc2c1c(/C(O)=C\C(=O)C(=O)O)cn2Cc1ccc(F)cc1 ; strain: IIIB ; read by: ELISA ; value: 0.08 µM
O=C(O)C(=O)/C=C(\O)c1cccc(NC(=O)c2cc([N+](=O)[O-])cc([N+](=O)[O-])c2O)c1 ; read by: 3′ processing / gel ; value: 8 µM
O=C1c2c(O)c(=O)n(C3CCC(O)CC3)c(=O)n2CCN1Cc1ccc(F)cc1 ; read by: strand transfer ; value: <10 µM
CC1(C)CC(=O)c2c(nc(-c3coc4cc(OCc5ccccc5F)ccc4c3=O)n2O)C1 ; read by: 3′ processing / radiometric ; value: >1000 µM
CNC(=O)NC[C@H]1O[C@@H](n2cnc3c(NC(=O)Nc4ccccc4)ncnc32)[C@@H]2OC(=O)C[C@@H]21 ; strain: NL4-3 ; read by: 3′ processing ; value: >10 µM
N#C/C(=C\c1ccc(O)c(O)c1)C(=O)NCCCCCNC(=O)/C(C#N)=C/c1ccc(O)c(O)c1 ; read by: 3′ processing / substrate cleavage ; value: 5–10 µM
CC(=O)N(C)C1CN(C)CCn2c1nc(C(=O)NCc1ccc(F)cc1)c(O)c2=O ; read by: ELISA ; value: <10 µM
O=C(c1cn2ccn(Cc3cccc(Cl)c3)c(=O)c2c(O)c1=O)N1CCOCC1 ; read by: ELISA ; value: 0.01–0.1 µM
N#C/C(=C\c1ccc(O)c(O)c1)C(=O)NCCCCc1ccccc1 ; read by: 3′ processing / substrate cleavage ; value: 10–100 µM
COc1cccc2c1c(/C(O)=C\C(=O)C(=O)O)cn2Cc1ccc(F)cc1 ; strain: IIIB ; read by: strand transfer / AlphaScreen ; value: 0.04 µM
CN1CCn2c(nc(C(=O)NCc3ccc(F)cc3)c(O)c2=O)C1CN(C)S(=O)(=O)N(C)C ; read by: ELISA ; value: <10 µM
COC(=O)c1c(Nc2cccc(-c3ccc(OC)c(OC)c3)c2)c2nccnc2n(O)c1=O ; read by: ELISA / strand transfer ; value: 0.22 µM
CN(C)C(=O)C(=O)N(C)C1CN(S(C)(=O)=O)CCn2c1nc(C(=O)NCc1ccc(F)cc1)c(O)c2=O ; read by: ELISA ; value: <10 µM
CC1(C)CC(=O)c2c(nc(-c3coc4cc(OCc5ccc(F)cc5)ccc4c3=O)n2O)C1 ; read by: 3′ processing / radiometric ; value: 580 µM
COc1cccc2c1c(/C(O)=C\C(=O)C(=O)O)cn2Cc1ccccc1F ; strain: IIIB ; read by: strand transfer / AlphaScreen ; value: 0.06 µM
O=P(O)(O)C(CNc1ccc(I)cc1)P(=O)(O)O ; read by: 3′ processing / gel ; value: >100 µM
CCOC(=O)c1c(C)nc(-c2coc3cc(OCc4cccc(F)c4)ccc3c2=O)n1O ; read by: 3′ processing / radiometric ; value: >1000 µM
[N-]=[N+]=NC[C@H]1O[C@@H](n2cnc3c(NC(=O)Nc4ccccc4)ncnc32)[C@@H]2OC(=O)C[C@@H]21 ; strain: NL4-3 ; read by: 3′ processing ; value: >10 µM

The last 5 rows once more:

structure	strain	mutations	read by	value
CC1(C)CC(=O)c2c(nc(-c3coc4cc(OCc5ccc(F)cc5)ccc4c3=O)n2O)C1	-	-	3′ processing / radiometric	580 µM
COc1cccc2c1c(/C(O)=C\C(=O)C(=O)O)cn2Cc1ccccc1F	IIIB	-	strand transfer / AlphaScreen	0.06 µM
O=P(O)(O)C(CNc1ccc(I)cc1)P(=O)(O)O	-	-	3′ processing / gel	>100 µM
CCOC(=O)c1c(C)nc(-c2coc3cc(OCc4cccc(F)c4)ccc3c2=O)n1O	-	-	3′ processing / radiometric	>1000 µM
[N-]=[N+]=NC[C@H]1O[C@@H](n2cnc3c(NC(=O)Nc4ccccc4)ncnc32)[C@@H]2OC(=O)C[C@@H]21	NL4-3	-	3′ processing	>10 µM